Laboratory results: PubChem BioAssay AID624099 (ICCB-Longwood, 2012)

Aim: 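Host factors E2 relies on to silence an HPV18 LCR reporter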 (primary screen)
System: human C33A cervical carcinoma cells (HPV-negative) stably expressing BPV1 E2 and an HPV18 LCR luciferase reporter
Knock-down reagent: siRNA pool against human genes, 40 nM
Duration: 72 h
Detection: 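Per-well luciferase luminescence, z-scored on each plate against the plate mean and SD with control wells left out, then averaged across three replicate plates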
Scale: mean z-score and z-score: higher = stronger reporter signal, weaker E2 silencing
Hit rule: 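Mean z ≥ 2 together with z ≥ 2 in two or more of the three replicates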
The deposit covers about 21,000 reagents; this is an unselected part. 497 of them (2.4%) were called active. 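Higher z means weaker E2 silencing; only reporter increases were scored, and knock-downs that hurt cell survival may mask genuine repressor factors.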 A number with no mark means an inactive call. Reagents against one gene are numbered here. Reagent sequences are not shown.

ERVFC1-1: mean z-score = -0.07; z-score, replicate A = -0.25; z-score, replicate B = 0.03; z-score, replicate C = 0
PRDX2: mean z-score = 0.39; z-score, replicate A = 0.25; z-score, replicate B = 0.37; z-score, replicate C = 0.55
OCIAD2: mean z-score = -0.58; z-score, replicate A = -0.36; z-score, replicate B = -0.32; z-score, replicate C = -1.07
KRT86: mean z-score = 0.5; z-score, replicate A = 0.28; z-score, replicate B = 0.53; z-score, replicate C = 0.68
SLC28A3: mean z-score = -0.71; z-score, replicate A = -0.95; z-score, replicate B = -1.16; z-score, replicate C = -0.02
ZDHHC5: mean z-score = 0.22; z-score, replicate A = -0.04; z-score, replicate B = 0.39; z-score, replicate C = 0.31
ABCG2: mean z-score = 0.37; z-score, replicate A = 0.41; z-score, replicate B = 0.31; z-score, replicate C = 0.38
LINC02538 #1: mean z-score = -0.34; z-score, replicate A = -0.23; z-score, replicate B = -0.33; z-score, replicate C = -0.47
LINC02538 #2: mean z-score = -1.06; z-score, replicate A = -1.19; z-score, replicate B = -0.9; z-score, replicate C = -1.1
IGSF23: mean z-score = -0.44; z-score, replicate A = -0.85; z-score, replicate B = -0.31; z-score, replicate C = -0.15
PIAS3: mean z-score = 0.45; z-score, replicate A = 0.75; z-score, replicate B = 0.43; z-score, replicate C = 0.18
PKD2L1: mean z-score = 0; z-score, replicate A = -0.01; z-score, replicate B = 0.16; z-score, replicate C = -0.16

2 of these entries in another layout:
gene	pool no.	mean z-score	z-score, replicate A	z-score, replicate B	z-score, replicate C
ABCG2	1	0.37	0.41	0.31	0.38
LINC02538	1	-0.34	-0.23	-0.33	-0.47
